Compound potency records, mixed from different reports. Data source: NIAID ChemDB in PubChem.

All rows: growth or infection tests; species: Hepatitis B virus; read-out: EC50

ECn is the concentration giving n% inhibition of infection, replication or growth.

compound	cell line	method	strain or isolate	result
Nc1nc(=O)c2ncn([C@@H]3O[C@H](CO)[C@@H](O)[C@H]3O)c2c(=O)[nH]1	2.2.15	antigen		>10 µM
C[C@H](NC(=O)c1c2n(c(=O)n1-c1ccc(OC3CCC3)cc1)CCN(C(=O)c1ccc(Br)c(Cl)c1)C2)c1ccccc1	HepG2.117	PCR		0.1–0.5 µM
CC1(COc2cc3c(cc2Cl)-c2c(cc(C(=O)O)c(=O)n2C2CC2)CS3(=O)=O)CCO1	Primary human hepatocytes	antigen / visual reading / absorbance		0.1–0.5 µM
Cn1nc2cc(NS(=O)(=O)c3cnn(CC4CC4)c3)ccc2c1C(=O)Nc1ccc(F)c(Cl)c1	HepAD38	PCR / entry		<100 µM
CS(=O)(=O)C1(c2ncc(C(=O)NCCC3(c4ncc(-c5ccc(Cl)cc5)s4)CCC3)o2)CC1	Primary human hepatocytes	antigen / luminescence		0.09 µM
CCC1c2cc(C(=O)O)c(=O)n(C3CCCC3)c2-c2cc(Cl)c(OCCCOC)cc2S1(=O)=O	Primary human hepatocytes	antigen / visual reading / absorbance		>0.5 µM
O=C(NCc1ccccc1)c1c2n(c(=O)n1-c1ccc(N3CCCC3=O)cc1)CCN(C(=O)c1ccc(Br)c(Cl)c1)C2	HepG2.117	PCR		0.1–0.5 µM
CC(=O)C1=C(C)NC(c2ccccn2)=NC1c1ccccc1Cl	HepG2.2.15			15 µM
CN(C)Cc1ccc(-c2ccc3ncnc(Nc4ccc(N5CCOCC5)cc4)c3c2)o1	HUH 9B	replicon		1–5 µM
COc1ccc(-n2c(C(=O)NCc3ccccc3)c3n(c2=O)CCN(C(=O)c2ccc(Cl)c(Cl)c2)C3)cc1C	HepG2.117	PCR		0.5–5 µM
CNS(=O)(=O)N1CC[C@@H](NS(=O)(=O)c2cn(C)c(C(=O)Nc3cc(F)c(F)c(F)c3)c2F)C1	HepAD38 cells	PCR		<0.1 µM
COC(=O)C1=C(C)NC(c2ccccn2)=NC1c1ccccc1C	HepG2.2.15			15 µM
N#CCOc1ccc(CCC(=O)c2c3n(c(=O)n2-c2ccc(OCC(F)(F)F)cc2)CCN(C(=O)c2ccc(Br)c(Cl)c2)C3)c(F)c1	HepG2.117	PCR		0.1–0.5 µM
Nc1ccn([C@@H]2CS[C@H](CO)O2)c(=O)n1	HepG2.2.15	ELISA / antigen		41.3 µM
COCCOC(=O)C1=C(C)NC(c2ccccn2)=NC1c1ccccc1Cl	HepG2.2.15			>50 µM
CS(=O)(=O)c1cc(C(=O)NCC2CCN(c3nc4cc(Cl)ccc4o3)CC2)ccn1	Primary human hepatocytes (PHH)	antigen / luminescence		5.741 µM
COC(=O)CNS(=O)(=O)c1ccc2c(C(=O)Nc3ccc(F)c(Cl)c3)n(C)nc2c1	HepAD38	PCR		>1000 µM
CC(C)(c1cccc(C(=O)NC23CC(c4nc(-c5ccc(Cl)cc5)no4)(C2)C3)c1)S(C)(=O)=O	Primary human hepatocytes	antigen / luminescence		0.37 µM
Cc1csc(-c2ccc3ncnc(Nc4ccc(N5CCOCC5)cc4)c3c2)c1	HUH 9B	replicon		1–5 µM
O=C(NC1CC2(C1)CC(c1nc3cc(Cl)ccc3o1)C2)c1cc(Br)co1	Primary human hepatocytes	luminescence		8.94 µM
Cc1ccnn1-c1ccc(-n2c(=O)c3c(n4ncc(Cc5ccccc5)c24)CN(C(=O)c2ccc(Br)c(Cl)c2)CC3)cc1	HepG2.117	luminescence		≤0.05 µM
Cc1cc(N2CCOCC2)ccc1Nc1ncnc2ccc(-c3cccs3)cc12	HUH 9B	replicon		<1 µM
Cn1nc2cc(NS(=O)(=O)N3CC[C@@H](O)C3)ccc2c1C(=O)Nc1ccc(F)c(Cl)c1	HepAD38	PCR		100–1000 µM
CNS(=O)(=O)c1ccc(C(=O)NC2CC3(C2)CC(c2nc4cc(Cl)ccc4o2)C3)o1	Primary human hepatocytes	luminescence		1.036 µM
COCCCOc1cc2c(cc1C(C)C)-c1c(cc(C(=O)O)c(=O)n1C1CC1)C(C)S2(=O)=O	Primary human hepatocytes	antigen / visual reading / absorbance		>0.5 µM
COC(=O)C1=C(C)NC(c2ccccn2)=NC1c1ccsc1	HepG2.2.15			20 µM
CCOC(=O)Nc1cc2c(cc1OCCCOC)S(=O)(=O)Cc1cc(C(=O)O)c(=O)n(C3CC3)c1-2	Primary human hepatocytes	antigen / visual reading / absorbance		>0.5 µM
O=C(NC1CC2CN(c3nc4cc(Cl)ccc4o3)CC2C1)C1CCS(=O)(=O)C1	Primary human hepatocytes (PHH)	antigen / luminescence		14 µM
C=C(C)[C@H](CC)CC[C@@H](C)[C@H]1CCC2C3C(CC[C@@]21C)[C@@]1(C)CC[C@H](O)CC1=C[C@H]3O	HepG2.2.15	ELISA / antigen		62 µM
O=C(Nc1ccc(-c2nc3cccc(F)c3o2)cc1)C1COCCO1	Primary human hepatocytes (PHH)	antigen / luminescence		1.23 µM
CC(C)CCN(c1ccc(N2CCOCC2)cc1)c1ncnc2ccc(-c3cccs3)cc12	HUH 9B	replicon		1–5 µM
CS(=O)(=O)C1(c2cccc(C(=O)NC34CC(c5nc(-c6ccc(Cl)cc6)no5)(C3)C4)n2)CC1	Primary human hepatocytes	antigen / luminescence		0.72 µM
CCNC(=O)C(=O)N1CC[C@@H](NS(=O)(=O)c2c(F)c(C(=O)Nc3cc(F)c(F)c(F)c3)n3c2CCC3)C1	HepAD38 cells	PCR		<0.1 µM
Cn1cnnc1-c1ccc(-n2c(=O)c3c(n4ncc(Cc5ccccc5)c24)CN(C(=O)c2ccc(Br)c(Cl)c2)CC3)cc1	HepG2.117	luminescence		≤0.05 µM
COc1cc2c(cc1Cl)-c1c(cc(C(=O)O)c(=O)n1C1CC1)CS2(=O)=O	Primary human hepatocytes	antigen / visual reading / absorbance		>0.1 µM
CCCCCCCCCCCCCCCC(=O)O	HepG2.2.15	ELISA / antigen		90.8 µM
CS(=O)(=O)N1CC(C(=O)NC2CC3(C2)CC(c2nc4cc(Cl)ccc4o2)C3)C1	Primary human hepatocytes	luminescence		3.56 µM
CCNC(=O)C(=O)N1CCC(NS(=O)(=O)c2c(F)c(C(=O)Nc3ccc(F)c(F)c3)n(C)c2C)CC1	HepAD38 cells	PCR		<0.1 µM
N#Cc1ccc(-n2c(C(=O)NCc3ccccc3)c3n(c2=O)CCN(C(=O)c2ccc(Br)c(Cl)c2)C3)cc1	HepG2.117	PCR		0.5–5 µM
O=C(NC1CC2(C1)CC(c1nc3cc(Cl)ccc3o1)C2)C1CCS(=O)(=O)N1	Primary human hepatocytes	luminescence		3.9 µM
Cc1nc(-c2ccc(-n3c(=O)c4c(n5ncc(Cc6ccccc6)c35)CN(C(=O)c3ccc(Cl)c(C(F)(F)F)c3)[C@H](C)C4)cc2)n[nH]1	HepG2.117	luminescence		≤0.05 µM
CC(C)NC(=O)C(=O)N1CC[C@@H](NS(=O)(=O)c2cn(C)c(C(=O)Nc3cc(F)c(F)c(F)c3)c2F)[C@@H](C)C1	HepAD38 cells	PCR		<0.1 µM
c1cc(-c2ccc3ncnc(Nc4ccc(N5CCOCC5)cc4)c3c2)cc(-n2cccn2)c1	HUH 9B	replicon		<1 µM
CS(=O)(=O)C1(c2cc(C(=O)NC34CC(c5nc(-c6ccc(Cl)cc6)no5)(C3)C4)ccn2)CC1	Primary human hepatocytes	antigen / luminescence		0.77 µM
CCNC(=O)C(=O)N1CCC(NS(=O)(=O)c2cn(C)c(C(=O)Nc3cc(F)c(F)c(F)c3)c2F)CC1	HepAD38 cells	PCR		<0.1 µM
CN1[C@H](C(=O)Nc2ccc(F)c(Cl)c2)C[C@H](c2ncc(-c3cn(C)cn3)s2)NS1(=O)=O	HepAD38	fluorescence	Genotype D	0.022 µM
FC(F)(F)Oc1ccc2ncnc(Nc3ccc(N4CCOCC4)cc3)c2c1	HUH 9B	replicon		5–25 µM
CCOC(=O)C1=C(C)NC(C2=NCCS2)=N[C@H]1c1ccc(F)cc1Cl	HepG2.2.15			0.03 µM
CSc1ccc(-n2c(C(=O)NCc3ccccc3)c3n(c2=O)CCN(C(=O)c2ccc(Br)c(Cl)c2)C3)cc1	HepG2.117	PCR		0.1–0.5 µM
O=C(O)c1cc2c(n(C3CC3)c1=O)-c1cc(Cl)c(OC[C@H]3CCCO3)cc1S(=O)(=O)C2	Primary human hepatocytes	antigen / visual reading / absorbance		>0.05 µM
COc1ccc(-n2c(C(=O)NCc3ccc4[nH]ncc4c3)c3n(c2=O)CCN(C(=O)c2ccc(Cl)c(Cl)c2)C3)cc1	HepG2.117	PCR		0.5–5 µM
NC(=O)c1cc(C(=O)NC2CC3(C2)CC(c2nc4cc(Cl)ccc4s2)C3)ccn1	Primary human hepatocytes	luminescence		6.81 µM
CCC[C@H]1Cc2c(n3ncc(Cc4ccccc4)c3n(-c3ccc4c(NC)n[nH]c4c3)c2=O)CN1C(=O)c1ccc(Br)c(C(F)(F)F)c1	HepG2.117	luminescence		≤0.05 µM
COc1ccc(-n2c(C(=O)N[C@@H](C)C3CC3)c3n(c2=O)CCN(C(=O)c2ccc(Cl)c(Cl)c2)C3)cc1	HepG2.117	PCR		>5 µM
C[C@@H]1Cc2c(n3ncc(Cc4ccccc4)c3n(-c3ccc(-c4ncnn4C)cc3)c2=O)CN1C(=O)c1ccc(Br)c(C(F)(F)F)c1	HepG2.117	luminescence		≤0.05 µM
CCNC(=O)C(=O)N1CC[C@@H](NS(=O)(=O)c2cn(C)c(C(=O)Nc3ccc(F)c(F)c3)c2F)[C@@H](F)C1	HepAD38 cells	PCR		<0.1 µM
Cn1cc(CN(C2CC2)S(=O)(=O)CNc2ccc3c(C(=O)Nc4ccc(F)c(Cl)c4)n(C)nc3c2)cn1	HepAD38	PCR		100–1000 µM
CNc1n[nH]c2cc(-n3c(=O)c4c(n5ncc(CC(C)C)c35)CN(C(=O)c3ccc(Br)c(C(F)(F)F)c3)[C@@H](C)C4)ccc12	HepG2.117	luminescence		0.05–0.5 µM
Cn1nc2cc(NS(=O)(=O)c3ccn(-c4ncccn4)n3)ccc2c1C(=O)Nc1ccc(F)c(Cl)c1	HepAD38	PCR		<100 µM
CNS(=O)(=O)N1CCN(S(=O)(=O)c2cn(C)c(C(=O)Nc3cc(F)c(F)c(F)c3)c2F)CC1	HepAD38 cells	PCR		0.1–0.3 µM
CS(=O)(=O)C1(c2ccn(C(=O)NCCC3(c4ncc(-c5ccc(Cl)cc5)s4)CCC3)n2)CC1	Primary human hepatocytes	antigen / luminescence		0.05 µM
CCNC(=O)c1ccc2ncnc(Nc3ccc(N4CCOCC4)cc3)c2c1	HUH 9B	replicon		1–5 µM
CC[C@]12CCC(C)(C)CC1[C@]1(CC(=O)O)CC[C@@]3(C)C4C[C@H](O)C(=O)O[C@H](C)[C@@]4(C)CCC3[C@@]1(C)CC2	HepG2.2.15	ELISA / antigen		33.7 µM
CCNC(=O)CCC1=C(C(=O)OC)C(c2ccccc2Cl)N=C(c2ccccn2)N1	HepG2.2.15			12–25 µM

Repeating the final 7 entries:

| compound | cell line | method | strain or isolate | result |
|---|---|---|---|---|
| CNc1n[nH]c2cc(-n3c(=O)c4c(n5ncc(CC(C)C)c35)CN(C(=O)c3ccc(Br)c(C(F)(F)F)c3)[C@@H](C)C4)ccc12 | HepG2.117 | luminescence |  | 0.05–0.5 µM |
| Cn1nc2cc(NS(=O)(=O)c3ccn(-c4ncccn4)n3)ccc2c1C(=O)Nc1ccc(F)c(Cl)c1 | HepAD38 | PCR |  | <100 µM |
| CNS(=O)(=O)N1CCN(S(=O)(=O)c2cn(C)c(C(=O)Nc3cc(F)c(F)c(F)c3)c2F)CC1 | HepAD38 cells | PCR |  | 0.1–0.3 µM |
| CS(=O)(=O)C1(c2ccn(C(=O)NCCC3(c4ncc(-c5ccc(Cl)cc5)s4)CCC3)n2)CC1 | Primary human hepatocytes | antigen / luminescence |  | 0.05 µM |
| CCNC(=O)c1ccc2ncnc(Nc3ccc(N4CCOCC4)cc3)c2c1 | HUH 9B | replicon |  | 1–5 µM |
| CC[C@]12CCC(C)(C)CC1[C@]1(CC(=O)O)CC[C@@]3(C)C4C[C@H](O)C(=O)O[C@H](C)[C@@]4(C)CCC3[C@@]1(C)CC2 | HepG2.2.15 | ELISA / antigen |  | 33.7 µM |
| CCNC(=O)CCC1=C(C(=O)OC)C(c2ccccc2Cl)N=C(c2ccccn2)N1 | HepG2.2.15 |  |  | 12–25 µM |

Two numbers with a dash give a range or band. Lines come from different laboratories, so protocols vary. An empty or dashed field is not shown.